SMILES strings stand for the structures. Where only a bound is given, the exact number is not on record here.

Chains of the proteins cited; added tags and fusions are not shown.
UniProt P06820, whole entry, looked up: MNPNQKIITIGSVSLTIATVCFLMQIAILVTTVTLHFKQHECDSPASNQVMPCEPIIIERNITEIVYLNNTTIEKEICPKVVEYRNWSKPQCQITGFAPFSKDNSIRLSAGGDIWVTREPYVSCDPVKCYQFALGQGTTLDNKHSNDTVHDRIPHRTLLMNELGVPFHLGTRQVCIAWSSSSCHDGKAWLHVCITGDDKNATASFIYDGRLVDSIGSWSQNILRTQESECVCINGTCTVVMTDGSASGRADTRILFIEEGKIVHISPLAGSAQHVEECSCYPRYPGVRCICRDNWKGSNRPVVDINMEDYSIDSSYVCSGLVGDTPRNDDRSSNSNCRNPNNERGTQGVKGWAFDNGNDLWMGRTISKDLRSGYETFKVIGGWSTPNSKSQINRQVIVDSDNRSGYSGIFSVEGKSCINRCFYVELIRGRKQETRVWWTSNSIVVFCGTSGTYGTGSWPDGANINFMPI

In general, IC50 refers to the concentration that inhibits the measured activity by half.

In this test the target is Neuraminidase (Influenza A virus, UniProt P06820). The note with it: strain A/Tokyo/3/1967 H2N2.

Turning to `COCCO[C@@H]1CCCN([C@@H]2C=C(OC=O)C[C@H](N)[C@H]2NC(C)=O)C1`, the IC50 is under 1 nM. In turn, `COCCO[C@@H]1CCCN([C@@H]2C=C(OC=O)C[C@H](NC(=N)N)[C@H]2NC(C)=O)C1` yielded an IC50 of under 1 nM.
